PubChem BioAssay AID624099, ICCB-Longwood, 2012
Aim: 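Human genes that papillomavirus E2 requires to repress the HPV18 LCR promoter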 (primary screen). Cell system: human C33A cervical carcinoma cells (HPV-negative) stably expressing BPV1 E2 and an HPV18 LCR luciferase reporter. Knock-down reagent: siRNA pool against human genes, 40 nM. Time to read-out: 72 h. Measured: 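Per-well luciferase luminescence, z-scored on each plate against the plate mean and SD with control wells left out, then averaged across three replicate plates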. Reading the numbers: mean z-score and z-score: higher = stronger reporter signal, weaker E2 silencing. Hit rule: 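Hit if mean z-score reaches 2 and two or more of three replicate z-scores also reach 2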.
This is an unselected part of about 21,000 reagents tested. 497 of them (2.4%) were called active. 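Higher z means weaker E2 silencing; only reporter increases were scored, and knock-downs that hurt cell survival may mask genuine repressor factors.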

no.	Target gene	mean z-score	z-score, replicate A	z-score, replicate B	z-score, replicate C	Call
1	LOC401123 (retired record)	-0.22	-0.15	-0.25	-0.25	inactive
2	BET1L	-0.56	-0.34	-0.9	-0.43	inactive
3	LINC00615	-1.39	-1.09	-1.5	-1.57	inactive
4	WDR53	-0.09	0.18	-0.16	-0.29	inactive
5	AMN	-0.26	0.04	-0.35	-0.48	inactive
6	GLRB	0.7	0.68	0.7	0.72	inactive
7	ADPRM	-0.35	-0.24	-0.24	-0.56	inactive
8	PKHD1L1	-0.35	0.08	-0.69	-0.45	inactive
9	ZNF676	0.98	0.75	0.89	1.32	inactive
10	LOC284269	0.7	0.94	0.29	0.87	inactive
11	COPA	-4.61	-4.93	-4.48	-4.41	inactive
12	RETREG2	-1.32	-1.16	-1.4	-1.39	inactive
13	CBL	-0.65	-0.38	-0.81	-0.76	inactive
14	GMEB1	0.81	0.98	0.48	0.97	inactive
15	KRT72	-1.08	-0.89	-1.77	-0.58	inactive
16	TMEM216	-0.15	0.21	-0.48	-0.18	inactive
17	ZNF823	-0.14	-0.1	-0.19	-0.12	inactive
18	ATPSCKMT	-0.48	-0.13	-0.56	-0.76	inactive
19	PACS1	1.09	0.95	1.14	1.19	inactive
20	NCEH1	0.73	0.59	0.87	0.73	inactive
21	TBCK	-0.94	-1.07	-1.18	-0.57	inactive
22	LOC340893 (retired record)	1.63	1.26	1.37	2.25	inactive
23	CDK2AP1	-1.24	-1.33	-1.1	-1.29	inactive
24	HSD3B1	0.96	0.59	1.1	1.21	inactive
25	SUN3	0.14	0.09	0.37	-0.06	inactive
26	SLC24A1	0.35	0.05	0.71	0.29	inactive
27	GPRASP1	0.15	0.28	0.11	0.05	inactive
28	B4GALT2	0.14	0.09	-0.18	0.5	inactive
29	ADHFE1	-0.99	-1.16	-0.8	-1.01	inactive
30	OR5K1	-0.08	-0.09	0.16	-0.31	inactive
31	SYNPR	-0.71	-0.32	-0.81	-0.99	inactive
32	GRINA	0.01	-0.15	0.05	0.11	inactive
33	CLDN10	1.98	1.97	1.87	2.08	inactive
34	SPP1	0.04	-0.08	0.18	0.02	inactive
35	ZDHHC2	0.91	1.26	1.15	0.31	inactive
36	HINT3	0.04	-0.59	0.27	0.44	inactive
37	PRMT5	-0.91	-0.89	-0.8	-1.02	inactive
38	SLITRK2	-0.19	0.1	0.21	-0.9	inactive
39	LOC401165 (retired record)	0.33	0.7	0.25	0.04	inactive
40	PAM16	0.26	0	0.19	0.6	inactive
41	CD300C	0.52	0.76	0.31	0.47	inactive
42	MUCL1	-0.47	-0.42	-0.66	-0.33	inactive
43	SUGCT	-1.33	-1.07	-1.37	-1.55	inactive
44	TNFRSF19	0.66	0.95	0.66	0.37	inactive
45	PTPN9	-0.51	-0.49	-0.52	-0.51	inactive
46	TM9SF4	-0.97	-1.06	-0.89	-0.96	inactive
47	F8	-0.72	-0.4	-1.08	-0.68	inactive
48	EBLN3P	0.05	0.16	0.3	-0.31	inactive

Continued (10 carried over from the part before).
no.	Target gene	mean z-score	z-score, replicate A	z-score, replicate B	z-score, replicate C	Call
39	LOC401165 (retired record)	0.33	0.7	0.25	0.04	inactive
40	PAM16	0.26	0	0.19	0.6	inactive
41	CD300C	0.52	0.76	0.31	0.47	inactive
42	MUCL1	-0.47	-0.42	-0.66	-0.33	inactive
43	SUGCT	-1.33	-1.07	-1.37	-1.55	inactive
44	TNFRSF19	0.66	0.95	0.66	0.37	inactive
45	PTPN9	-0.51	-0.49	-0.52	-0.51	inactive
46	TM9SF4	-0.97	-1.06	-0.89	-0.96	inactive
47	F8	-0.72	-0.4	-1.08	-0.68	inactive
48	EBLN3P	0.05	0.16	0.3	-0.31	inactive
49	LIMCH1	-1.25	-1.32	-0.78	-1.64	inactive
50	ANPEP	0.28	-0.01	0.38	0.48	inactive
51	GBA1	0.33	0.34	0.16	0.48	inactive
52	AGPS	-0.48	-0.44	-0.42	-0.6	inactive
53	PNPT1	-1.27	-1.22	-1.21	-1.39	inactive
54	MNS1	0.64	0.42	0.86		inactive
55	OBSL1	0.87	0.62	0.77	1.24	inactive
56	LOC388353 (retired record)	-0.06	-0.36	0.11	0.06	inactive
57	PLXDC2	-0.24	-0.39	-0.25	-0.08	inactive
58	TLCD3A	0.91	1.87	0.66	0.21	inactive
59	VN2R9P	-0.75	-0.37	-0.75	-1.15	inactive
60	DHRS7	-0.17	-0.27	-0.04	-0.21	inactive
61	HSD3B7	-0.41	-0.33	-0.58	-0.31	inactive
62	NOL4L-DT	0.29	0.01	0.56	0.31	inactive
63	ZZEF1	-0.11	-0.35	0.03	0	inactive
64	ELOB	-0.93	-0.97	-0.89	-0.93	inactive
65	MYH8	-1.18	-1.14	-1.2	-1.2	inactive
66	VN1R37P	-0.04	-0.34	0.21	0.02	inactive
67	NLRX1	-0.57	-0.52	-0.5	-0.68	inactive
68	ACAD9	0.05	-0.07	0.19	0.02	inactive
69	CLBA1	-2.13	-2.24	-2.16	-1.99	inactive
70	IGF1R	0.33	0.28	0.27	0.43	inactive
71	ESCO1	-1.31	-1.44	-1.31	-1.17	inactive
72	USP12	-0.22	-0.58	0.11	-0.19	inactive
73	FHL3	0.11	-0.07	0.1	0.3	inactive
